Measurements from patent US20070010489A1 (priority 2002, published 2007).

What follows are compounds tested on mutant HIV-1 with M46I/I47V/I50V mutations (I50V #1). Settings: fold change.

Row | SMILES | I50V (#1) fold change
1 | COc1ccc(S(=O)(=O)N(CC(C)C)C[C@@H](O)[C@H](Cc2ccc(OCP(=O)(Oc3ccccc3)Oc3ccccc3)cc2)NC(=O)OC2CCOC2)cc1 (stereo partly shown) [OMe, phenol] | +++ (>30)
2 | CC(C)CN(C[C@@H](O)[C@H](Cc1ccc(OCP(=O)(Oc2ccccc2)Oc2ccccc2)cc1)NC(=O)OC1CCOC1)S(=O)(=O)c1ccc(N)cc1 (stereo partly shown) [NH2, phenol] | + (>3 to ≦10)
3 | CCOP(=O)(COc1ccc(CC(NC(=O)OC2CCOC2)C(O)CN(CC(C)C)S(=O)(=O)c2ccc(OC)cc2)cc1)OCC (stereo not shown) [OMe, OEt] | +++ (>30)
4 | Cc1ccc(C(=O)NC(Cc2ccc(OCP(=O)(O)O)cc2)C(O)CN(CC(C)C)S(=O)(=O)c2ccc(N)cc2)cc1O (stereo not shown) | ++ (>10 to ≦30)
5 | COc1ccc(S(=O)(=O)N(CC(C)C)C[C@@H](O)[C@H](Cc2ccc(OCP(=O)(O)O)cc2)NC(=O)OC2CCOC2)cc1 (stereo partly shown) [OMe, OH] | +++ (>30)
6 | COc1ccc(S(=O)(=O)N(CC(C)C)CC(O)C(Cc2ccc(CO)cc2)NC(=O)OC2COC3OCCC23)cc1 (stereo not shown) | − (≦3)
7 | COc1ccc(S(=O)(=O)N(CC(C)C)C[C@@H](O)[C@H](Cc2ccc(OCP(=O)(OCc3ccccc3)OCc3ccccc3)cc2)NC(=O)OC2CCOC2)cc1 (stereo partly shown) [OMe, OBn] | ++ (>10 to ≦30)
8 | COc1cccc(S(=O)(=O)N(CC(C)C)CC(O)C(Cc2ccccc2)NC(=O)OC2COC3OCCC23)c1 (stereo not shown) | +++ (>30)
9 | CCOP(=O)(COc1cccc(S(=O)(=O)N(CC(C)C)CC(O)C(Cc2ccccc2)NC(=O)OC2COC3OCCC23)c1)OCC (stereo not shown) | +++ (>30)
10 | Cc1cccc(C)c1OCC(=O)NC(Cc1ccc(OCP(=O)(OCc2ccccc2)OCc2ccccc2)cc1)C(O)CN(CC(C)C)S(=O)(=O)c1ccc(N)cc1 (stereo not shown) | + (>3 to ≦10)
11 | CCOP(=O)(COc1ccc(S(=O)(=O)N(CC(C)C)CC(O)C(Cc2ccccc2)NC(=O)OC2COC3OCCC23)cc1)OCC (stereo not shown) | ++ (>10 to ≦30)
12 | CC(C)CN(CC(O)C(Cc1ccccc1)NC(=O)OC1COC2OCCC12)S(=O)(=O)c1ccc(OCP(=O)(OCc2ccccc2)OCc2ccccc2)cc1 (stereo not shown) | +++ (>30)
13 | CC(C)CN(C[C@@H](O)[C@H](Cc1ccc([N+](=O)[O-])cc1)NC(=O)O[C@H]1CO[C@H]2OCC[C@H]21)S(=O)(=O)c1ccc(OCP(=O)(Oc2ccccc2)Oc2ccccc2)cc1 [NO2, phenol] | − (≦3)
14 | Cc1cccc(C)c1OCC(=O)NC(Cc1ccc(OCP(=O)(O)O)cc1)C(O)CN(CC(C)C)S(=O)(=O)c1ccc(N)cc1 (stereo not shown) | ++ (>10 to ≦30)
15 | COc1ccc(S(=O)(=O)N(CC(C)C)CC(O)C(Cc2ccccc2)NC(=O)OC2COC3OCCC23)cc1OCP(=O)(OCc1ccccc1)OCc1ccccc1 (stereo not shown) | +++ (>30)
16 | COc1ccc(S(=O)(=O)N(CCN(C)C)CC(O)C(Cc2ccc(O)cc2)NC(=O)OC2COC3OCCC23)cc1 (stereo not shown) | − (≦3)
17 | CC(C)CN(CC(O)C(Cc1ccccc1)NC(=O)OC1COC2OCCC12)S(=O)(=O)c1cccc(OCP(=O)(O)O)c1 (stereo not shown) | ++ (>10 to ≦30)
18 | CC(C)CN(CC(O)C(Cc1ccccc1)NC(=O)OC1COC2OCCC12)S(=O)(=O)c1cccc(OCP(=O)(OCc2ccccc2)OCc2ccccc2)c1 (stereo not shown) | ++ (>10 to ≦30)
19 | Cc1ccc(C(=O)NC(Cc2ccc(OCP(=O)(OCc3ccccc3)OCc3ccccc3)cc2)C(O)CN(CC(C)C)S(=O)(=O)c2ccc(N)cc2)cc1O (stereo not shown) | +++ (>30)

Same assay, conditions: fold difference in EC50 mutant vs wild type, class symbols

Row | SMILES | I50V (#1) fold change
20 | COc1ccc(S(=O)(=O)N(CC(C)C)CC(O)C(Cc2ccc(OCP(=O)(OC(C)C)OC(C)C)cc2)NC(=O)OC2COC3OCCC23)cc1 (stereo not shown) [drawing 1768 R1=OiPr R2=OiPr] | − (≦3)
21 | COc1ccc(S(=O)(=O)N(CC(C)C)CC(O)C(Cc2ccc(OCP(=O)(OCc3ccccc3)OCc3ccccc3)cc2)NC(=O)OC2COC3OCCC23)cc1 (stereo not shown) [drawing 1768 R1=OBn R2=OBn] | − (≦3)
22 | CCOP(=O)(OCC)c1ccc(CN(C)CC(NC(=O)OC2COC3OCCC23)C(O)CN(CC(C)C)S(=O)(=O)c2ccc(OC)cc2)cc1 (stereo not shown) | +++ (>30)
23 | CCOP(=O)(COc1ccc(CC(NC(=O)OC2COC3OCCC23)C(O)CN(CC(C)C)S(=O)(=O)c2ccc(OC)cc2)cc1)OCC (stereo not shown) [drawing 1768 R1=OEt R2=OEt] | − (≦3)
24 | CCOC(=O)C(CC)OP(=O)(COc1ccc(CC(NC(=O)OC2COC3OCCC23)C(O)CN(CC(C)C)S(=O)(=O)c2ccc(OC)cc2)cc1)Oc1ccccc1 (stereo not shown) [Compound 5a] | + (>3 to ≦10)
25 | CCOP(=O)(OCC)c1ccc(CC(NC(=O)OC2COC3OCCC23)C(O)CN(CC(C)C)S(=O)(=O)c2ccc(OC)cc2)cc1 (stereo not shown) [drawing 1770 R1=OEt R2=OEt] | + (>3 to ≦10)
